Data: PMC4891693, “Discovery of prenylated flavonoids with dual activity against influenza virus and Streptococcus pneumoniae” (Scientific Reports, 2016)

Assays:
human erythrocytes [1] = test system: human erythrocytes
human erythrocytes [2] = assay: Interference with hemagglutination in the viral HA assay
[3] = pure compounds, human erythrocytes, 2 h at 4 °C

Row | Molecule | sample concentrations provoking induction of hemagglutination in bacterial HA assay (human erythrocytes [1]) | sample concentrations provoking induction of hemagglutination in viral HA assay (human erythrocytes [2]; [3]) | sample concentrations provoking induction of hemagglutination in viral HA assay (human erythrocytes [2])
1 | sanggenon G [Compound 4] | no | no | –
2 | COc1ccc(C2CC(=O)c3c(cc(O)c(CC=C(C)C)c3O)O2)cc1 (stereo not drawn) [Compound 19] | no | – | 100 µM
3 | COc1ccc(C2CC(=O)c3c(O)cc(O)cc3O2)cc1O (racemic) [Compound 10, (±)-hesperetin] | no | – | no
4 | O=C1CC(c2ccc(O)cc2O)Oc2cc(O)cc(O)c21 (stereo not drawn) [Compound 12, 2',4',5,7-tetrahydroxyflavanone] | no | – | 10 to 100 µM
5 | CC(C)=CCc1c(O)c(CC=C(C)C)c2c(c1O)C(=O)C(c1ccc(O)cc1O)CO2 (stereo not drawn) [Compound 32, orientanol E] | no | – | no
6 | sanggenon D [Compound 3] | no | no | –
7 | CC(C)=CCC/C(C)=C/Cc1c(O)cc2c(c1O)C(=O)[C@H](O)[C@@H](c1ccc(O)cc1)O2 [Compound 26, bonanniol A] | no | – | 31.6 to 100 µM
8 | CC(C)=CCc1c(O)c(CC=C(C)C)c2c(c1O)C(=O)CC(c1cc(O)cc(O)c1)O2 (stereo not drawn) [Compound 29, 2-(3,5-dihydroxyphenyl)-2,3-dihydro-5,7-dihydroxy-6,8-bis(3-methyl-2-buten-1-yl)-4H-1-benzopyran-4-one] | no | – | no
9 | O=c1cc(-c2ccc(O)c(O)c2O)oc2cc(O)cc(O)c12 [Compound 14, 2',3',4',5,7-pentahydroxyflavone] | no | – | 10 to 100 µM
10 | CC(C)=CCc1c(O)c(CC=C(C)C)c2occ(-c3ccc(O)cc3)c(=O)c2c1O [Compound 30, 6,8-diprenylgenistein] | no | – | 100 or no
11 | COc1c(CC=C(C)C)cc([C@@H]2CC(=O)c3c(O)cc(O)cc3O2)cc1CC=C(C)C [Compound 27, abyssinone-V 4'-methyl ether] | no | – | 10 to 100 µM
12 | COc1cc(C2CC(=O)c3c(cc(O)c(CC=C(C)C)c3O)O2)ccc1O (stereo not drawn) [Compound 22, 2,3-dihydro-5,7-dihydroxy-2-(4-hydroxy-3-methoxyphenyl)-6-(3-methyl-2-buten-1-yl)-4H-1-benzopyran-4-one] | no | – | no
13 | O=C1c2c(O)cc(O)cc2OC(c2c(O)cccc2O)C1O (stereo not drawn) [Compound 13, 3,5,7,2',6'-pentahydroxyflavanone] | no | – | no
14 | CC(C)=CC[C@]12Oc3cc(O)c([C@H]4C=C(C)C[C@H](c5ccc(O)cc5O)[C@H]4C(=O)c4ccc(O)cc4O)c(O)c3C(=O)[C@@]1(O)Oc1cc(O)ccc12 [Compound 2, sanggenon C] | no | – | no
15 | CC(C)=CCC12Oc3cc(O)c(C4=CC5(C)CC(C4)c4ccc(O)cc4O5)c(O)c3C(=O)C1(O)Oc1cc(O)ccc12 (stereo not drawn) [Compound 1, sanggenon B] | no | – | 100 or no
16 | CC1=C[C@H](c2c(O)ccc([C@@H]3CC(=O)c4c(O)cc(O)cc4O3)c2O)[C@@H](C(=O)c2ccc(O)cc2O)[C@H](c2ccc(O)cc2O)C1 [Compound 6, kuwanon L] | no | – | no
17 | CC(C)=CCc1c(O)cc(CCc2ccccc2)c(CC=C(C)C)c1O [Compound 33, 2,4-bis(3-methyl-2-buten-1-yl)-5-(2-phenylethyl)-1,3-benzenediol] | no | – | 100 µM

Row | Molecule | sample concentrations provoking induction of hemagglutination in bacterial HA assay (human erythrocytes [1]) | sample concentrations provoking induction of hemagglutination in viral HA assay (human erythrocytes [2]; [3]) | sample concentrations provoking induction of hemagglutination in viral HA assay (human erythrocytes [2])
18 | CC(C)=CCC/C(C)=C/Cc1c(O)cc(O)c2c1OC(c1ccccc1)CC2=O (racemic) [Compound 24, (R,S)-8-geranyl-5,7-dihydroxyflavanone] | no | – | no
19 | CC(C)=CCc1cc(C2CC(=O)c3ccc(O)cc3O2)ccc1O (racemic) [Compound 18, (±)-abyssinone II] | no | – | no
20 | CC(C)=CCc1c(O)cc(O)c2c1O[C@@H](c1ccc(O)cc1)[C@H](O)C2=O (relative stereo) [Compound 23, (2R,3R)-rel-4H-2,3-dihydro-3,5,7-trihydroxy-2-(4-hydroxyphenyl)-8-(3-methyl-2-buten-1-yl)-1-benzopyran-4-one] | no | – | no
21 | COc1cc(C2CC(=O)c3c(O)cc(O)cc3O2)ccc1O (racemic) [Compound 9, (±)-homoeriodictyol] | no | – | no
22 | CC(C)=CCc1c(O)c(CC=C(C)C)c2occ(-c3ccc(O)c(O)c3)c(=O)c2c1O [Compound 31, 6,8-diprenylorobol] | no | – | no
23 | COc1cc(C2CC(=O)c3c(O)cc(O)cc3O2)cc(CC=C(C)C)c1O (stereo not drawn) [Compound 21, 2,3-dihydro-5,7-dihydroxy-2-[4-hydroxy-3-methoxy-5-(3-methyl-2-butenyl)phenyl]-4H-1-benzopyran-4-one] | no | – | no
24 | CC(C)=CCc1cc(C2CC(=O)c3c(O)cc(O)cc3O2)ccc1O (stereo not drawn) [Compound 20, 4',5,7-trihydroxy-3'-prenylflavanone] | no | – | no
25 | CC(C)=CCc1c(O)c(CC=C(C)C)c2[nH]c3c(O)cccc3c(=O)c2c1O [Compound 34, atalphylline] | no | – | 10 to 100 µM
26 | O=c1c(O)c(-c2ccc(O)cc2O)oc2cc(O)cc(O)c12 [Compound 16, morin] | 100 µM | – | no
27 | O=c1cc(-c2ccc(O)c(O)c2)oc2cc(O)cc(O)c12 [Compound 15, luteolin] | no | – | 3.16 to 100 µM
28 | O=C1CC(c2ccc(O)c(O)c2)Oc2cc(O)cc(O)c21 (racemic) [Compound 11, (±)-eriodictyol] | no | – | no
29 | COc1cc([C@H]2Oc3cc([C@H]4Oc5cc(O)cc(O)c5C(=O)[C@@H]4O)ccc3O[C@@H]2CO)ccc1O (racemic) [Compound 17, (±)-silybin] | no | 100 µM | –
30 | CC(C)=CCC/C(C)=C/Cc1c(O)ccc([C@@H]2CC(=O)c3c(O)cc(O)cc3O2)c1O [Compound 5, sanggenol A] | no | – | no
31 | COc1c(O)cc2c(c1O)C(=O)CC(c1ccccc1)O2 (stereo not drawn) [Compound 8, 2,3-dihydro-5,7-dihydroxy-6-methoxy-2-phenyl-4H-1-benzopyran-4-one] | no | no | –
32 | CC(C)=CCc1c(O)c(CC=C(C)C)c2c(c1O)C(=O)C[C@@H](c1ccc(O)cc1)O2 [Compound 28, 6,8-diprenylnaringenin] | no | – | no
33 | CC(C)=CCC/C(C)=C/Cc1c(O)cc2c(c1O)C(=O)CC(c1ccc(O)c(O)c1)O2 (stereo not drawn) [Compound 25] | no | – | no

Read-outs that look alike come from different tables or passages of the source.
